These are literature values, as cited in patent publication US8093046B2, “CVN-12p1: a recombinant allosteric lectin antagonist of HIV-1 envelope gp120 interactions” (Philadelphia Health and Education Corporation d/b/c Drexel …, priority 2006, dated 2012).

Usually IC50 stands for the concentration at which inhibition is half-maximal. A word on the Kd: it is the equilibrium constant for the complex coming apart.

Data set [1] deals with monomeric YU2 gp120 / sCD4 (Human immunodeficiency virus type 1 group M subtype B, UniProt P35961). The note with it: SPR analysis; read-out: IC50, inhibition of binding of monomeric YU2 gp120 to sCD4; cited from earlier work. (Surface plasmon resonance follows binding to a sensor surface in real time, without labels.)
Data set [2] has as its target monomeric YU2 gp120 / 17b (Human immunodeficiency virus type 1 group M subtype B, UniProt P35961). The note with it: SPR analysis; read-out: IC50, inhibition of binding of monomeric YU2 gp120 to 17b; cited from earlier work.
For data set [3], the target named is T1, YU2 gp120 / mAb F105 (Human immunodeficiency virus type 1 group M subtype B, UniProt P35961).
T1 construct: made in house; host or cells: gp120: Drosophila S2 cells
The note with it: from literature; cited from earlier work.

The target of data set [4] is YU2 gp120 (Human immunodeficiency virus type 1 group M subtype B, UniProt P35961). The settings on record: read-out: Equilibrium dissociation constant KD for binding to YU2; cited from earlier work.

For the sequence RINNIPWSEAMM [12p1], the IC50 is 1100 nM in data set [1] and 1600 nM in data set [2]. In addition, in data set [3], the “Effect on F105 binding to gp120” value was “inhibits at μM concentrations”. Moreover, the Kd in data set [4] was 3600 nM.
